Compound potency records, mixed from different reports. Data source: NIAID ChemDB in PubChem.

Common to all: whole-cell or culture tests; species: Candida albicans

ECn is the concentration giving n% inhibition of infection, replication or growth.

structure	strain or isolate	read by	setting	measure	value
CC1=CCC2(C)CCC(O)(C(C)C)C2C(OC(=O)c2ccccc2)C1	SC5314	-	-	MIC	>50 µg/mL
CC(N1CCN(c2ccc(-n3cnn(Cc4ccc(OC(F)(F)F)cc4)c3=O)cc2)CC1)C(O)(Cn1cncn1)c1ccc(F)cc1F	6 strains (fluconazole-resistant)	-	-	MIC90	0.19 µg/mL
CCCCCCCOC[n+]1cccc(NCn2cnc3ccccc32)c1	ATCC 10231	-	-	MBC	2574 µM
COc1ccc(Nc2nnc(CCn3ncc4ccccc4c3=O)s2)cc1	ATCC 10231	-	-	MIC	128 µg/mL
CCn1cc(C(=O)O)c(=O)c2cc(F)c(N3CCN(CN4C(=O)/C(=N\c5ncc(Cc6cc(OC)c(OC)c(OC)c6)c(N)n5)c5cc(Cl)ccc54)CC3)cc21	-	-	-	MIC	156 µg/mL
CCC[CH2][Sn+3].Fc1ccccc1N=C([S-])N/N=C(\c1ccccc1)c1ccccn1	ATCC 18804	broth dilution	-	MIC	26.84 µM
O=C1CSC2(CCc3ccccc32)N1n1c(-c2ccc(Cl)cc2Cl)n[nH]c1=S	-	-	-	MIC100	6.25 µg/mL
CCCCCOc1ccc(-c2ccc(-c3ccc(C(=O)N[C@H]4C[C@@H](O)[C@@H](O)NC(=O)[C@@H]5[C@@H](O)[C@@H](C)CN5C(=O)[C@H]([C@H](C)O)NC(=O)[C@H]([C@H](O)[C@@H](O)c5ccc(O)cc5)NC(=O)[C@@H]5C[C@@H](O)CN5C(=O)[C@H]([C@H](C)O)NC4=O)cc3)cc2)cc1	10 strains (fluconazole-resistant)	-	-	MFC90	1 µg/mL
O=C(CSc1nc2c(sc(=S)n2-c2ccccc2)c(=O)n1-c1ccccc1)c1ccc(Br)cc1	ATCC 90018	-	-	MIC	1 µg/mL
CC1=C[C@H](OC(=O)c2ccccc2)C2[C@](C)(CC[C@@]2(O)C(C)C)CC1=O	SC5314	-	-	MIC	>50 µg/mL
Clc1ccc(C(c2ccn(-c3ccc(Cl)cc3)c2)n2ccnc2)cc1	-	-	-	MIC	7.3 µg/mL
C[C@H]1[C@H](O)[C@@H](C)/C=C/C=C/C=C/C=C/C=C/C=C/C=C/[C@H](O[C@@H]2O[C@H](C)[C@@H](O)[C@H](N)[C@@H]2O)C[C@@H]2O[C@](O)(C[C@@H](O)C[C@@H](O)CC[C@H](O)[C@@H](O)C[C@@H](O)CC(=O)O[C@H]1C)C[C@H](O)[C@H]2C(=O)O	ATCC 18804 and ATCC 28815 26555 24433 64544 64550	-	-	MFC	0.78–3.13 µg/mL
O=C(CSc1nc2c(sc(=S)n2-c2ccccc2)c(=O)n1-c1ccccc1)c1ccccc1	ATCC 90018	-	-	MIC	64 µg/mL
Clc1ccc(C(COc2ccc(Cl)cc2Cl)Cn2ccnc2)cc1	-	-	-	MIC	10 µg/mL
C[C@H](N)C(=O)N[C@H](C(=O)O)n1cc(F)c(=O)[nH]c1=O	B-310	-	-	MIC	12.5 µg/mL
Clc1ccc(OCC(Cn2ccnc2)c2ccc(Cl)cc2Cl)cc1	-	-	-	MIC	10 µg/mL
Cc1ccc(-n2c(CCn3ncc4ccccc4c3=O)n[nH]c2=S)cc1	ATCC 10231	-	-	MIC	512 µg/mL
C[C@@H](c1ncncc1F)[C@](O)(Cn1cncn1)c1ccc(F)cc1F	8 strains	-	-	Geometric mean MIC	0.112 µg/mL
CCc1nn(CC(=O)NN)c(=O)n1NCc1ccccc1	-	-	-	MIC	250 µg/mL
CCC(C)CC(C)CCCCCCCCC(=O)N[C@H]1C[C@@H](O)[C@H](NCCN)NC(=O)[C@@H]2[C@@H](O)CCN2C(=O)[C@H]([C@H](O)CCN)NC(=O)[C@H]([C@H](O)[C@@H](O)c2ccc(O)cc2)NC(=O)[C@@H]2C[C@@H](O)CN2C(=O)[C@H]([C@@H](C)O)NC1=O	40 strains	-	-	MIC50	0.5 µg/mL
CCCCCCCCCCCC[n+]1cc[nH]c1C(C)O	-	-	-	MIC	8 µg/mL
Oc1cccc2c(N=c3ssnc3Cl)cccc12	ATCC 10231	-	-	MIC	16 µg/mL
O=c1c2ccccc2cnn1Cc1n[nH]c(=S)n1-c1ccc(Cl)cc1	ATCC 10231	-	-	MIC	512 µg/mL
C=CCc1ccc(OC)c(OC)c1	3087	turbidity	-	MIC90	345 µg/mL
C[C@H]1[C@H](O)[C@@H](C)/C=C/C=C/C=C/C=C/C=C/C=C/C=C/[C@H](O[C@@H]2O[C@H](C)[C@@H](O)[C@H](N)[C@@H]2O)C[C@@H]2O[C@](O)(C[C@@H](O)C[C@@H](O)CC[C@H](O)[C@@H](O)C[C@@H](O)CC(=O)O[C@H]1C)C[C@H](O)[C@H]2C(=O)O	10231	broth dilution	-	MIC	0.03 µg/mL
CCn1cc(-c2cccc3ccccc23)c(C(c2ccc(Cl)cc2Cl)n2ccnc2)c1	-	-	-	MIC	1.1 µg/mL
O=c1c2ccccc2cnn1Cc1nnc(Nc2ccccc2)s1	ATCC 10231	-	-	MIC	512 µg/mL
CCn1cc(C(=O)O)c(=O)c2cc(F)c(N3CCN(CN4C(=O)/C(=N\c5ncc(Cc6cc(OC)c(OC)c(OC)c6)c(N)n5)c5cc(Br)ccc54)CC3)cc21	-	-	-	MIC	78.12 µg/mL
C[C@H]1[C@H](O)[C@@H](C)/C=C/C=C/C=C/C=C/C=C/C=C/C=C/[C@H](O[C@@H]2O[C@H](C)[C@@H](O)[C@H](N)[C@@H]2O)C[C@@H]2O[C@](O)(C[C@@H](O)C[C@@H](O)CC[C@H](O)[C@@H](O)C[C@@H](O)CC(=O)O[C@H]1C)C[C@H](O)[C@H]2C(=O)O	B311	-	-	MIC	1.25 µg/mL
Clc1cc(Cl)c(OCC#CI)cc1Cl	13 strains	-	-	MIC90	6.25 µg/mL
CCn1cc(C(=O)O)c(=O)c2cc(F)c(N3CCN(CN4C(=O)C(=Nc5ccc(S(=O)(=O)Nc6ncccn6)cc5)c5cc(Cl)ccc54)CC3)cc21	-	-	-	MIC	156 µg/mL
CC(N1CCN(c2ccc(-n3cnn(Cc4ccc(C(F)(F)F)cc4)c3=O)cc2F)CC1)C(O)(Cn1cncn1)c1ccc(F)cc1F	51 strains (fluconazole-susceptible)	-	-	MIC90	0.09 µg/mL
Cc1cc(COc2ccc(Oc3ccc(Cl)cc3)cc2)n(O)c(=O)c1	-	-	-	MIC	1–4 µg/mL
O=C(NNC(=S)NCc1ccccc1)c1cc2ccccc2cc1O	ATCC 2091	-	-	MIC	250 µg/mL
CCn1cc(-c2ccc(Cl)cc2)c(C(c2ccccc2)n2ccnc2)c1	-	-	-	MIC	0.11 µg/mL
CCCCCCOC[n+]1cccc(NCn2nnc3ccccc32)c1	ATCC 10231	-	-	MIC	>1332 µM
O=C(CSc1nc2c(sc(=S)n2-c2ccccc2)c(=O)n1-c1ccccc1)c1ccc(Cl)cc1	ATCC 90018	-	-	MIC	128 µg/mL
COc1ccc(-n2c(Cn3ncc4ccccc4c3=O)n[nH]c2=S)cc1	ATCC 10231	-	-	MIC	512 µg/mL
CSc1ccc(-c2c[nH]cc2C(c2ccc(Cl)cc2Cl)n2ccnc2)cc1	-	-	-	MIC	2.8 µg/mL
Clc1ccc(OCC(Cn2ccnc2)c2ccc(Cl)cc2)cc1	-	-	-	MIC	>100 µg/mL
CCCCCCCCCCCCOCn1c[n+](CNC(=O)c2cccnc2)c2ccccc21	ATCC 10231	-	-	MIC	>1028 µM
CCC[CH2][Sn+3].O=[N+]([O-])c1ccccc1N=C([S-])N/N=C(\c1ccccc1)c1ccccn1	ATCC 18804	broth dilution	-	MIC	6.42 µM
c1ccc(-c2c[nH]cc2C(c2cccc3ccccc23)n2ccnc2)cc1	-	-	-	MIC	1.7 µg/mL
CCCCCCCCCCCOC[n+]1cccc(NCNc2ccc[n+](COCCCCCCCCCCC)c2)c1	ATCC 10231	-	-	MIC	195 µM
Clc1nssc1=Nc1ccccc1	ATCC 10231	-	-	MIC	16 µg/mL
CCCCCCCCCCCCCCn1cc[n+](C)c1	-	-	-	MIC	8 µg/mL
O=C1CSC2(CCc3ccccc32)N1n1c(-c2cccnc2)n[nH]c1=S	-	-	-	MIC100	3.13 µg/mL
CC1=CC[C@@]2(C)CC[C@@](O)(C(C)C)[C@@H]2[C@@H](OCC(=O)c2ccccc2)C1	-	broth dilution	-	EC90	>50 µg/mL
C=C(C)C(=O)OCCCCCCCCCC[n+]1ccccc1.[Br-]	ATCC 90028	-	-	MIC100	630 µg/mL
CCOc1ccc2nc3cc(N=C4NC(=O)/C(=C\C=C\c5ccc([N+](=O)[O-])o5)S4)ccc3c(N)c2c1	ATCC 60193	broth dilution	-	MFC	>1000 µg/mL
Clc1nssc1=Nc1ccc2ncccc2c1	ATCC 10231	-	-	MIC	16 µg/mL
CCCCCCCCCCCCCCCC(=O)NC1CC(O)C(O)NC(=O)C2C(O)C(C)CN2C(=O)C(C(O)CC(N)=O)NC(=O)C(C(O)Cc2ccc(O)c(OS(=O)(=O)O)c2)NC(=O)C2CC(O)CN2C(=O)C(C(C)O)NC1=O	FP629	-	-	MIC50	0.004 µg/mL
O=C1CSC2(CCc3ccccc32)N1n1c(-c2ccc(Cl)cc2)n[nH]c1=S	-	-	-	MIC100	25 µg/mL
C[n+]1c2ccc(Cl)cc2cc2[nH]c3ccccc3c21	ATCC 90028	resazurin	-	MIC	>5.5 µg/mL
O=c1c2ccccc2cnn1CCc1nnc(NCc2ccccc2)s1	ATCC 10231	-	-	MIC	512 µg/mL
CC1=C[C@H](OC(=O)c2ccc(O)cc2)C2[C@](C)(CC[C@@]2(O)C(C)C)CC1=O	SC5314	-	-	MIC	>50 µg/mL
C[C@H]1[C@H](O)[C@@H](C)/C=C/C=C/C=C/C=C/C=C/C=C/C=C/[C@H](O[C@@H]2O[C@H](C)[C@@H](O)[C@H](N)[C@@H]2O)C[C@@H]2O[C@](O)(C[C@@H](O)C[C@@H](O)CC[C@H](O)[C@@H](O)C[C@@H](O)CC(=O)O[C@H]1C)C[C@H](O)[C@H]2C(=O)O	40 strains	-	-	MIC90	0.25 µg/mL
C[C@@H](c1ncncc1F)[C@](O)(Cn1cncn1)c1ccc(F)cc1F	100 isolates	-	-	MIC90	0.5 µg/mL
Clc1nssc1=Nc1cccc2ccccc12	ATCC 10231	-	-	MIC	16 µg/mL
Cc1ccc(OCc2n[nH]c(=S)n2N2C(=O)CSC23CCc2ccccc23)cc1	-	-	-	MIC100	3.13 µg/mL
NNC(=O)c1cc2ccccc2cc1O	ATCC 2091	-	-	MIC	250 µg/mL
CCn1cc(C(=O)O)c(=O)c2cc(F)c(N3CCN(CN4C(=O)C(=Nc5ccc(S(=O)(=O)Nc6ncnc(OC)c6OC)cc5)c5cc(Br)ccc54)CC3)cc21	-	-	-	MIC	78.12 µg/mL
Cc1ccc(C(=O)CSc2nc3c(sc(=S)n3-c3ccccc3)c(=O)n2-c2ccccc2)cc1	ATCC 90018	-	-	MIC	64 µg/mL
Clc1ccc(C(CCCOc2ccc(Br)cc2)Cn2ccnc2)c(Cl)c1	-	-	-	MIC	>100 µg/mL
C/C(=N\NC([S-])=Nc1ccccc1Cl)c1ccccn1.CCC[CH2][Sn+3]	ATCC 18804	broth dilution	-	MIC	29.06 µM
Cn1c(=S)[nH]c2c(sc(=S)n2-c2ccccc2)c1=O	ATCC 90018	-	-	MIC	4 µg/mL
CCNc1nnc(-c2cc3ccccc3cc2O)s1	ATCC 2091	-	-	MIC	125 µg/mL
C[n+]1cccc(N(CCCCCC2CCCCC2)c2cccc(C#N)c2)c1.[I-]	ATCC 90028	resazurin	-	EC50	>20 µg/mL
CCn1cc(C(=O)O)c(=O)c2cc(F)c(N3CCN(CN4C(=O)C(=Nc5ccc(S(=O)(=O)Nc6ncnc(OC)c6OC)cc5)c5ccccc54)CC3)cc21	-	-	-	MIC	156 µg/mL
CCCCCOc1ccc(-c2ccc(-c3ccc(C(=O)N[C@H]4C[C@@H](O)[C@@H](O)NC(=O)[C@@H]5[C@@H](O)[C@@H](C)CN5C(=O)[C@H]([C@H](C)O)NC(=O)[C@H]([C@H](O)[C@@H](O)c5ccc(O)cc5)NC(=O)[C@@H]5C[C@@H](O)CN5C(=O)[C@H]([C@H](C)O)NC4=O)cc3)cc2)cc1	42 isolates	-	-	Geometric mean MIC	0.0029 µg/mL
C[n+]1cccc(Nc2ccccc2)c1.[I-]	ATCC 90028	resazurin	-	EC50	>20 µg/mL
Cn1ccnc1C(=O)c1nccn1C	ATCC 10231	broth dilution	24 h	MIC	>512 µg/mL
Fc1ccc(C(c2ccn(-c3ccc(F)cc3)c2)n2ccnc2)cc1	-	-	-	MIC	1.4 µg/mL

Repeating the first 8 entries:

| structure | strain or isolate | read by | setting | measure | value |
|---|---|---|---|---|---|
| CC1=CCC2(C)CCC(O)(C(C)C)C2C(OC(=O)c2ccccc2)C1 | SC5314 | - | - | MIC | >50 µg/mL |
| CC(N1CCN(c2ccc(-n3cnn(Cc4ccc(OC(F)(F)F)cc4)c3=O)cc2)CC1)C(O)(Cn1cncn1)c1ccc(F)cc1F | 6 strains (fluconazole-resistant) | - | - | MIC90 | 0.19 µg/mL |
| CCCCCCCOC[n+]1cccc(NCn2cnc3ccccc32)c1 | ATCC 10231 | - | - | MBC | 2574 µM |
| COc1ccc(Nc2nnc(CCn3ncc4ccccc4c3=O)s2)cc1 | ATCC 10231 | - | - | MIC | 128 µg/mL |
| CCn1cc(C(=O)O)c(=O)c2cc(F)c(N3CCN(CN4C(=O)/C(=N\c5ncc(Cc6cc(OC)c(OC)c(OC)c6)c(N)n5)c5cc(Cl)ccc54)CC3)cc21 | - | - | - | MIC | 156 µg/mL |
| CCC[CH2][Sn+3].Fc1ccccc1N=C([S-])N/N=C(\c1ccccc1)c1ccccn1 | ATCC 18804 | broth dilution | - | MIC | 26.84 µM |
| O=C1CSC2(CCc3ccccc32)N1n1c(-c2ccc(Cl)cc2Cl)n[nH]c1=S | - | - | - | MIC100 | 6.25 µg/mL |
| CCCCCOc1ccc(-c2ccc(-c3ccc(C(=O)N[C@H]4C[C@@H](O)[C@@H](O)NC(=O)[C@@H]5[C@@H](O)[C@@H](C)CN5C(=O)[C@H]([C@H](C)O)NC(=O)[C@H]([C@H](O)[C@@H](O)c5ccc(O)cc5)NC(=O)[C@@H]5C[C@@H](O)CN5C(=O)[C@H]([C@H](C)O)NC4=O)cc3)cc2)cc1 | 10 strains (fluconazole-resistant) | - | - | MFC90 | 1 µg/mL |

An empty or dashed field is not shown. Conditions beyond the fields shown may differ between rows. MIC50, MIC90 and the like: level of inhibition, or share of isolates inhibited. Two numbers with a dash give a range or band.